This is an account of results in ChEMBL document CHEMBL1201862, “PubChem BioAssay data set” (2004).

For orientation: IC90 means the concentration at which the effect reaches the 90% level.

This test concerns the target T1, Protein RecA (Mycobacterium tuberculosis) (UniProt P9WHJ3).
T1 sequence (whole entry): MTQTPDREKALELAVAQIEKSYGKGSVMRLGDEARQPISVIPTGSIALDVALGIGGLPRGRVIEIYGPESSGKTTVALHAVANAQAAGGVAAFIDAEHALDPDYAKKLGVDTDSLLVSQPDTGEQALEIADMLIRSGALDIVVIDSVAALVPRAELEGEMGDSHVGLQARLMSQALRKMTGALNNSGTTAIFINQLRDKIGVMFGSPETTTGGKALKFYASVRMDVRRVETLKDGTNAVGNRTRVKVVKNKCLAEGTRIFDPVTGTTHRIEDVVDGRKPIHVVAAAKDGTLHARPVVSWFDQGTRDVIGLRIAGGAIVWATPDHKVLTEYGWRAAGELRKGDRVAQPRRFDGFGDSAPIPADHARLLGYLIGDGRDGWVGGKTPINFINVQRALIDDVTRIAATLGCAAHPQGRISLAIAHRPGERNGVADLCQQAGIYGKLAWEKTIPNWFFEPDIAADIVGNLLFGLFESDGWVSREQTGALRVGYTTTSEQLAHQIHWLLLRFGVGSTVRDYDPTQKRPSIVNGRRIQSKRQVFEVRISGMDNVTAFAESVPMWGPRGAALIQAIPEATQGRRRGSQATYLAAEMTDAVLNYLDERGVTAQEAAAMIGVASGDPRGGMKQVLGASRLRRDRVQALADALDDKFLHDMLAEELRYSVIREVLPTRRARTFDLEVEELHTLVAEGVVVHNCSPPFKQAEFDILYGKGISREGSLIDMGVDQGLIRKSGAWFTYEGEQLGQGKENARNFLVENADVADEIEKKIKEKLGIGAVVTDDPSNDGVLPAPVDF
As to the kind of experiment: M. tuberculosis H37Rv growth inhibition, dose response, strain H37Rv (AID 489010).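 Note: whole Mycobacterium tuberculosis cells grown in culture and not purified RecA protein.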 It is filed as functional.

Only a part is listed here, and it is no random draw. Only a part of the results of these assays is listed, not drawn at random.

As for `CCc1nc2c([nH]1)c1no[n+]([O-])c1c1no[n+]([O-])c21`, the concentration for an effect of 90% (IC90) is active: 14.9 µM.
